Laboratory results as given in patent publication US20160068577.

Target: HER2, human, P04626 23-1255

For αHER2-VHH fused with SLT-1A, the Kd was 2.35 nM.
